Test system: P. falciparum stage V gametocytes
Conditions: 48 h, 5 µM; inhibitor

**Q.** How did the “% Inhibition” value turn out when `CCN1CCCC(OC(=O)C(O)(c2ccc3c(c2)OCO3)c2ccc3c(c2)OCO3)C1` (stereo not shown) was run?
**A.** The value was -1.39%.
